Columns and labels:
integrin αMβ2 = assay: ELISA, integrin coated on plate, anti-human IgG (Fc)-HRP detection
Procedure: (§1) Integrins (αII_{^b}β₃, αVβ₃, αMβ₂, and αLβ₂) were added to 96-well plate at 100 ng/well, respectively, followed by coating at 4° C. overnight. After the coating, the wells were washed three times with PBS-T (0.5% Tween 20). The wells were blocked with 1% BSA (in PBS-T) solution at room temperature for 2 h. After the blocking, the wells were washed three times with PBS-T. Saxatilin-Fc or Fc-saxatilin was diluted serially 4-fold from 100 nM to prepare eight sample solutions.
(§2) 100 μl of the sample solutions were triply loaded to each well, followed by a reaction at room temperature for 2 h. After the reaction, the wells were washed three times with PBS-T. 100 μl of anti-human IgG (Fc)-conjugated HRP antibodies, diluted to 1:20,000, was added to each well, followed by a reaction at room temperature for 1 h. After the reaction, the wells were washed four times with PBS-T. TMB solution was added, followed by a reaction at room temperature for 30 min, and then the reaction was stopped by adding a stop solution (0.5 M H₂SO₄). The absorbance was measured at 450 nm to verify the binding between saxatilin and integrins, involved in an interaction between neutrophils and endothelial cells.

integrin αLβ2 = target: T1, integrin αLβ2; assay: as above
T1 construct: Purified integrin coated on a 96-well plate at 100 ng/well
Procedure: as §1, §2

Row | Binder | Kd (integrin αMβ2) | Kd (integrin αLβ2)
1 | Fc-saxatilin (Fc fusion, Expressed in 293E cells and purified on protein A; also called saxatilin derivative; recombinant saxatilin) not shown | 6.9 nM | 9.2 nM
2 | saxatilin-Fc (Fc fusion, Expressed in 293E cells and purified on protein A; also called saxatilin derivative; recombinant saxatilin) not shown | 300 nM | 440 nM

Reference: patent publication US20160355557A1 (INDUSTRY ACADEMIC COOPERATION FOUNDATION YONSEI UNIVERSITY, published 2016)
